The source of these data is patent publication US12485127B2, “Compositions and methods for treatment and prevention of actinic keratosis using copper chlorin” (CHL Industries, LLC, priority 2024, dated 2025).

Common to all, as to type: cell-based, human papillomavirus
Common to all, as to conditions: for SI50: CC50/EC50; for SI90: CC50/EC90

In data set [1] the test system is HPV-18 (strain: KC470230.1). Description: HPV-18 genome plasmid replication assay in C-33 A cells. As for the experimental part: (§1) The in vitro testing of the chlorin compounds and the positive control for antiviral cytopathic effect (CPE) was conducted through The National Institute of Allergy and Infectious Diseases (NIAID) NCEA Program. The in vitro testing was done by the method described by Beadle J R, Valiaeva N, Yang G, Yu J H, Broker T R, Aldern K A, et al. Synthesis and Antiviral Evaluation of Octadecyloxyethyl Benzyl 9-[(2-Phosphonomethoxy)ethyl]guanine (ODE-Bn-PMEG), a Potent Inhibitor of Transient HPV DNA Amplification. J Med Chem. 2016; 59(23):10470-8. PubMed PMID: 27933957. This method uses an HPV-11 replicon assay. The replicon (pMP619) is transfected into C-33 A cells grown as monolayers in 384-well plates. At 48 hours post transfection, the enzymatic activity of the destabilized NanoLuc reporter is assessed with NanoGlo reagent. […] The host C-33 A cells are epithelial cells originally isolated from the cervix of a uterine cancer patient. For reasons previously mentioned in this application, in vitro testing of compounds for potential antiviral activity against HPV strains cannot use human keratinocytes as the host cells due to the variable HPV replication activity with this cell line.
(§2) The EC50 (or Effective Concentration 50) is the concentration of the test compound in micromoles that reduces virus replication by 50%. The EC90 (or Effective Concentration 90) is the concentration of the test compound in micromoles that reduces virus replication by 90%. CC50 (or Cytotoxic Concentration 50) is the concentration of the test compound in micromoles that reduces the cell viability of the virus host cell by 50%. The SI50 (or Selectivity Index 50) is a measure of both safety and efficacy or therapeutic index and is calculated by dividing the CC50 by the EC50. The SI90 (Selectivity Index 90) is calculated by dividing the CC50 by the EC90.
(§3) The in vitro test method used to assess activity of copper chlorins according to embodiments herein against HPV-18 and HPV-31 used the same replication and quantification method described previously for Table 1 results but with HPV-18 and HPV-31 genome plasmids. Results of the in vitro testing of three of the same copper chlorins as used in Table 1, as well as the same control, against HPV 18 and HPV 31 are summarized in Table 2 and Table 3 below.

Data set [2] concerns HPV-11 (HE611260.1 strain). Put plainly: HPV-11 replicon assay (NanoLuc reporter) in C-33 A cells. As for the experimental part: as §1
The control compound, PMEG, has a molecular weight of 289.188 g/mol. The molecular weight of the copper chlorin compounds evaluated are (1) 661.5 g/mol for disodium copper isochlorin e4; (2) 710.5 g/mol for trisodium copper chlorin p6; (3) 724.15 g/mol for trisodium copper chlorin e6; and (4) 740 g/mol for trisodium copper rhodin g7. The antiviral test results in Table 1 for each treatment composition and the control are reported in micromoles (uM) for the EC50, EC90, and CC50. The SI 50 and SI 90 are calculated from the EC50, EC90, and CC50 data.
as §2
In general terms: A replicon is a self-replicating genome or part of one, used to study replication in cells.

For data set [3], the system named is HPV-31 (strain: HQ53768.1). Description: HPV-31 genome plasmid replication assay in C-33 A cells. The method, then:
as §1, §2, §3

Regarding `C=Cc1c(C)c2cc3nc(c(CC(=O)[O-])c4[n-]c(cc5nc(cc1[n-]2)C(C)=C5CC)c(C)c4C(=O)[O-])C(CCC(=O)[O-])C3C.[Cu+2].[Na+].[Na+].[Na+]` (centres unmarked) [Trisodium copper chlorin e6], the SI50 in data set [1] turned out to be 38; in data set [2] it was 28; in data set [3], 27. Moreover, the values for the SI90 in data set [1], in data set [2] and in data set [3] were 18, 3 and 13, respectively.

For Disodium copper isochlorin e4, the SI50 in data set [1] came to 16; in data set [2], 17; in data set [3], 206. Besides, the SI90 in data set [1] is reported as 8; in data set [2], 4; in data set [3] it was 12.

As to Trisodium copper rhodin g7, the SI50 is 196 in data set [1], more than 33 in data set [2] and 632 in data set [3]. Moreover, the SI90 in data set [1] was 89; in data set [2], more than 3; in data set [3], 140.

In data set [2], `C=Cc1c(C)c2cc3nc(c(C(=O)[O-])c4[n-]c(cc5nc(cc1[n-]2)C(C)=C5CC)c(C)c4C(=O)[O-])C(CCC(=O)[O-])C3C.[Cu+2].[Na+].[Na+].[Na+]` (centres unmarked) [Trisodium copper chlorin p6] gave an SI50 of 11 and an SI90 of 2.

`Nc1nc2c(ncn2CCOCP(=O)(O)O)c(=O)[nH]1` [9-[2-(phosphono-methoxy)-ethyl]guanine, reference compound]: the SI50 is more than 107 in data set [1], more than 164 in data set [2] and more than 64 in data set [3]. Also, the SI90 in data set [1] is more than 12; in data set [2], 1; in data set [3], more than 14.
